Laboratory results from patent US20240059757A1 (VIR BIOTECHNOLOGY, published 2024).

Assays:
[1] = target: PANG/GD spike protein RBD (PANG/GD); test: ELISA
[2] = target: RaTG13 spike protein RBD (RaTG13); test: ELISA
[3] = target: BtKY72 spike protein RBD (BtKY72); test: ELISA
[4] = target: ZC45 spike protein RBD (ZC45); test: ELISA
[5] = target: PANG/GX spike protein RBD (PANG/GX); test: ELISA
[6] = target: PANG/GX spike protein (PANG/GX); test: cell-based or functional assay
[7] = target: PANG/GD spike protein (PANG/GD); test: cell-based or functional assay
[8] = target: ZC45 spike protein RBD (ZC45); test: BLI
[9] = target: WIV1 spike protein RBD (WIV1); test: BLI
[10] = target: SARS-CoV Spike protein (SARS-CoV, UniProt P59594 14-1255); test: ELISA, panel 'Spike SARS1' (SARS-CoV Spike protein)

Binder | EC50 [1] [µg/mL] | EC50 [2] [µg/mL] | EC50 [3] [µg/mL] | EC50 [4] [µg/mL] | EC50 [5] [µg/mL] | neutralization IC50 [6] [µg/mL] | neutralization IC50 [7] [µg/mL] | Kd [8] [nM] | Kd [9] [nM] | binding result [10]
S2D22 (antibody, V domains shown) VH: EVHLVESGGGLVQPGGSLKLSCAASGFTFSGSAMHWVRQASGKGLEWVGRIRTKANTYATAYAASVKGRFTISRDDSKNTAYLQMNSLKTEDTAVYYCTRPAPYDFLSDYYTGEQLDYWGQGTLVTVSS VL: QSVLTQPPSVSGAPGQRVTISCTGSSSNIGAGYDVHWYQQLPGAAPKLLIYGNSNRPSGVPDRFSGSKSGTSASLAITGLQAEDEADYYCQSYDSSLSGPEVFGTGTKVTVL | 0.0491 | 0.0451 | 0.0529 | 0.0485 | 0.0432 | 0.284 | 0.0955 | 41.4 | 40 | –
S2X227 (antibody, V domains shown) VH: EVQLVQSGAEVKKPGASVKVSCKASGYTFTSYYMHWVRQAPGQGLEWMGIINPGGVSTTYAHYAQKFQGRVTMTRDTSTSTVYMELSSLRSEDTAVYYCARSIAVFWGDAFDIWGQGTMVTVSS VL: DIQMTQSPDSLAVSLGERATINCKSSQSVLYSSNNKNYLAWYQQKPGQPPKLLIYWASTRESGVPDRFSGSGSGTDFTLTISSLQAEDVAVYYCQQYSSSPLTFGGGTKVEIK | – | – | – | – | – | – | – | – | – | no binding (tested: about 5000 ng/ml)
